Experimental data as given in patent publication US20060270832A1, “Type II chi-conotoxin peptides (noradrenaline transporter inhibitors)” (published 2006).

B1: SEQ ID NO. 82 (peptide)
peptide: WNGVCCGYKLCHPC
modifications: not checked
B2: SEQ ID NO. 89 (peptide)
peptide: YNGVCCGYKLCRPC
modifications: not checked
B3: SEQ ID NO. 92 (peptide)
peptide: WKDVCCGYKLCWPC
modifications: not checked
B4: SEQ ID NO. 146 (peptide)
peptide: NGVCCGYKLCHPC
modifications: not checked
B5: SEQ ID NO. 148 (peptide)
peptide: VCCGYKLCC
modifications: not checked

Target: human noradrenaline transporter (hNET) (human), P23975
Experiment: cell-based or functional assay

Binder	Av IC50, inhibition of NA uptake via hNET (log M (unit not given))
B1	-5.5
B2	-6.95
B3	-7.44
B4	-6.13
B5	-6.46
